Measurements reported in PubChem BioAssay AID504761 (Drosophila RNAi Screening Center, 2011).
Screen: 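Fly genes whose silencing reduces dengue virus type 2 infection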 (primary screen). System: D.Mel-2 cells from Drosophila. Reagent: long dsRNA against Drosophila genes. Challenge: infection with dengue virus type 2; dose and infection time not stated. Read-out: 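Cells stained for dengue envelope protein and imaged; percent of infected cells per well on duplicate plates, ranked by infection, with stained nuclei counted for cell number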. Scale: infection score: higher = more virus-infected cells; cell count: higher = more cells in the well. Hit rule: 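Very low infection ranking in both replicate wells (chance probability at most 0.065), then a retest showing infection dropped 1.5-fold or more at p below 0.05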. Calls: active = confirmed: knock-down lowers infection; inactive = not picked or not confirmed.
The screen tested about 22,000 reagents; below is a random part of those that have a named target and a result. In the full data, 116 (0.52%) were called active. 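Calls depend on retest data that are not deposited; infection was ranked per plate without normalising between plates; the unit of the infection score is not given.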 The raw values are shown without normalisation. Entries without a mark were called inactive. The numbers tell different reagents against one gene apart. A plus sign joins genes that one reagent is predicted to hit. The record does not give: the amount of reagent, the time to read-out.

| gene knocked down | dsRNA no. | infection score, replicate 1 | infection score, replicate 2 | cell count, replicate 1 | cell count, replicate 2 |
| --- | --- | --- | --- | --- | --- |
| AstC (GeneID 34537) | 1 | 18.7 | 2.37 | 4376 | 6300 |
| CG7488 (GeneID 41597) | 1 | 7.03 | 8.04 | 5875 | 6693 |
| Dpck (GeneID 40846) | 1 | 2.21 | 1.7 | 6478 | 6535 |
| nahoda (GeneID 37641) | 1 | 3.96 | 0.82 | 5911 | 5757 |
| nahoda (GeneID 37641) | 2 | 12.4 | 14.8 | 6169 | 6477 |
| PhKgamma (GeneID 32120) | 1 | 3.51 | 4.04 | 6727 | 6536 |
| PhKgamma (GeneID 32120) | 2 | 10.1 | 5.74 | 6305 | 6152 |
| CG32069 + Blos2 | 1 | 1.83 | 2.83 | 6544 | 6575 |
| CR33319 (GeneID 3772025) | 1 | 0.11 (active) | – | 5498 | 5491 |
| CG8908 (GeneID 37293) | 1 | 2.41 | 4.59 | 6091 | 5756 |
| grk (GeneID 34171) | 1 | 5.95 | 3.44 | 6351 | 5491 |
| CG5273 (GeneID 31021) | 1 | 6.11 | 5.56 | 5468 | 665 |
| CG11790 (GeneID 42999) | 1 | 2.97 | 2.9 | 6362 | 6962 |
| Dnaaf5 (GeneID 318680) | 1 | 8.03 | 4.94 | 5905 | 5872 |
| CG15128 (GeneID 37263) | 1 | 5.13 | 4.11 | 5892 | 5961 |
| PIG-Wa (GeneID 33425) | 1 | 2.57 | 1.82 | 6307 | 6493 |
| CG34266 (GeneID 5740465) | 1 | 3.78 | 5.26 | 6140 | 5473 |
| Cht4 (GeneID 49815) | 1 | 9.23 | 28.4 | 6856 | 6693 |
| gas (GeneID 37572) | 1 | 17.2 | 20.4 | 6226 | 6222 |
| CG15449 (GeneID 33079) | 1 | 10.1 | 3.34 | 5764 | 5365 |
| Unc-115b + p24-2 + Unc-115a | 1 | 1.42 | 5.1 | 6276 | 6409 |
| CG3609 (GeneID 33421) | 1 | 1.94 | 18.7 | 6195 | 5826 |
| CG3609 (GeneID 33421) | 2 | 13.7 | 15 | 5995 | 5331 |
| CG13998 (GeneID 50423) | 1 | 10.9 | 7.74 | 5429 | 5633 |
| CG3330 (GeneID 43296) | 1 | 4.33 | 8.31 | 6577 | 6537 |
| Miga (GeneID 31775) | 1 | 1.15 | 1.69 | 6769 | 6570 |
| CG31437 (GeneID 318735) | 1 | 1.07 | 0.17 | 6005 | 5974 |
| srw (GeneID 38525) | 1 | 2.92 | 1.13 | 5818 | 6001 |
| CR31846 (retired record) (GeneID 10178826) | 1 | 5.72 | 4.73 | 6068 | 6147 |
| tko (GeneID 31228) | 1 | 2.24 | 7.45 | 5799 | 4964 |
| tko (GeneID 31228) | 2 | 10.4 | 3.28 | 6343 | 6404 |
| Osi16 (GeneID 318801) | 1 | 5.02 | 17.7 | 6580 | 5619 |
| Osi16 (GeneID 318801) | 2 | 3.22 | 1.91 | 6521 | 6761 |
| yellow-e (GeneID 41653) | 1 | 3.66 | 1.64 | 6198 | 4822 |
| yellow-e (GeneID 41653) | 2 | 5.84 | 20.9 | 6801 | 6033 |
| rost (GeneID 34222) | 1 | 17.7 | 19.5 | 4797 | 5655 |
| rost (GeneID 34222) | 2 | 9.18 | 11.6 | 2974 | 3760 |
| fusl (GeneID 33765) | 1 | 5.5 | 2.4 | 6131 | 6544 |
| fusl (GeneID 33765) | 2 | 12.9 | 19.5 | 6260 | 5791 |
| CG32599 (GeneID 318108) | 1 | 3.34 | 5.87 | 6225 | 5992 |
| CG32599 (GeneID 318108) | 2 | 4.52 | 2.89 | 6310 | 6468 |
| MESK2 + CG10494 | 1 | 18 | 8.73 | 5575 | 5839 |
| Rcc1 (GeneID 38669) | 1 | 11.1 | 15.6 | 4176 | 3735 |
| Rcc1 (GeneID 38669) | 2 | 9.1 | 9.93 | 2900 | 5660 |
| schlank (GeneID 50392) | 1 | 1.1 | 4.63 | 6186 | 6075 |
| schlank (GeneID 50392) | 2 | 14.8 | 24.6 | 5605 | 4905 |
| CG30286 (GeneID 246529) | 1 | 12.5 | 19.5 | 4409 | 4818 |
| CG30187 (GeneID 246509) | 1 | 2.66 | 6.49 | 6233 | 6413 |
| CG32305 (GeneID 317967) | 1 | 1.48 | 2.1 | 6468 | 6669 |
| CG32305 (GeneID 317967) | 2 | 10.3 | 11 | 6553 | 492 |
| Jhbp7 (GeneID 43035) | 1 | 2.47 | 4.54 | 6430 | 6649 |
| Jhbp7 (GeneID 43035) | 2 | 1.93 | 5.8 | 6430 | 6656 |
| CG7857 (GeneID 39671) | 1 | 5.21 | 8.85 | 6412 | 6636 |
| CG7857 (GeneID 39671) | 2 | 18.5 | 13.1 | 3284 | 4691 |
| Cka (GeneID 34096) | 1 | 1.66 | 7.57 | 6213 | 6649 |
| Cka (GeneID 34096) | 2 | 2.52 | 4.65 | 7109 | 7326 |
| CG31960 (GeneID 319047) | 1 | 4.24 | 1.38 | 6603 | 6506 |
| CG31960 (GeneID 319047) | 2 | 11.2 | 5.36 | 5836 | 6564 |
| CG4537 (GeneID 34306) | 1 | 5.57 | 6.63 | 6389 | 6046 |
| CG32821 (retired record) (GeneID 318229) | 1 | 2.88 | 5.91 | 6659 | 6535 |
| Rab26 (GeneID 40359) | 1 | 2.99 | 0.81 | 6560 | 6666 |
| Rab26 (GeneID 40359) | 2 | 14.1 | 2.18 | 6353 | 6700 |
| Rab26 (GeneID 40359) | 3 | 6.18 | 9.26 | 5794 | 6209 |
| Rab26 (GeneID 40359) | 4 | 17.9 | 18.1 | 6182 | 6995 |
| Acat1 (GeneID 31695) | 1 | 3.73 | 33.1 | 6728 | 6182 |
| Acat1 (GeneID 31695) | 2 | 6.73 | – | 4293 | 371 |
| Ir52d (GeneID 36716) | 1 | 6.98 | 6.95 | 6177 | 7048 |
| CG9636 (GeneID 40967) | 1 | 7.03 | 11.3 | 6783 | 6993 |
| Obp47a (GeneID 36162) | 1 | 3.38 | 18.1 | 6959 | 5623 |
| Obp47a (GeneID 36162) | 2 | 7.78 | 1.47 | 6397 | 5923 |
| alpha-Est8 (GeneID 40899) | 1 | 4.64 | 7.08 | 6655 | 6479 |
| mthl11 (GeneID 117467) | 1 | 1.02 | 2.03 | 6355 | 6296 |
| mthl11 (GeneID 117467) | 2 | 17.2 | 6.02 | 4764 | 2891 |
| Srp14 (GeneID 42436) | 1 | 7.79 | 5.92 | 6254 | 6622 |

Ordered by “infection score, replicate 1” (descending): some entries from above
| gene knocked down | dsRNA no. | infection score, replicate 1 | infection score, replicate 2 | cell count, replicate 1 | cell count, replicate 2 |
| --- | --- | --- | --- | --- | --- |
| mthl11 (GeneID 117467) | 2 | 17.2 | 6.02 | 4764 | 2891 |
| Obp47a (GeneID 36162) | 2 | 7.78 | 1.47 | 6397 | 5923 |
| alpha-Est8 (GeneID 40899) | 1 | 4.64 | 7.08 | 6655 | 6479 |
| Obp47a (GeneID 36162) | 1 | 3.38 | 18.1 | 6959 | 5623 |
| mthl11 (GeneID 117467) | 1 | 1.02 | 2.03 | 6355 | 6296 |
